Assay results reported in PMC10548512 (Chemical Science, 2023).

Tested on: H1N1pdm09 virus (A/Netherlands/602/2009) I375F mutant
Details: luciferase reporter assay; for IC50: read-out: IC50 (nM) Neth09 I375F, infection of HeLa R19 cells, I375F resistance mutant, dilution series starting from 1 µM, three biological replicates

## CC[C@H](C)[C@@H]1NC(=O)[C@H](CO)NC(=O)CNC(=O)CNC(=O)[C@H](CC(=O)O)NC(=O)[C@@H]2CCCN2C(=O)[C@H](Cc2c[nH]c3ccccc23)NC(=O)[C@H](CC(N)=O)NC(=O)[C@H](Cc2ccccc2)NC(=O)[C@H](C(C)C)NC(=O)[C@H](Cc2ccccc2)NC(=O)[C@H](CC(C)C)NC(=O)[C@@H]2CSC(=N2)c2cc(ccn2)C[C@@H](C(=O)NCC(N)=O)NC(=O)[C@H](CCCCN)NC(=O)[C@H](CC(N)=O)NC(=O)[C@H]([C@@H](C)O)NC1=O [M5]
1 µM peptide, mutant resistant against previous hits (Fig. S3)
  Infection inhibition in single-concentration screen, I375F mutant: most potent activity
  IC50: 71.7 nM

## CC[C@H](C)[C@@H]1NC(=O)CNC(=O)[C@H](CC(N)=O)NC(=O)[C@@H]2CCCN2C(=O)[C@H](C(C)C)NC(=O)[C@H](Cc2ccccc2)NC(=O)[C@H](Cc2ccc(O)cc2)NC(=O)[C@@H]2CCCN2C(=O)[C@H](Cc2ccccc2)NC(=O)[C@H](Cc2ccc(O)cc2)NC(=O)[C@H](CC(C)C)NC(=O)[C@@H]2CSC(=N2)c2cc(ccn2)C[C@@H](C(=O)NCC(N)=O)NC(=O)[C@H](CCC(=O)O)NC(=O)[C@H](CC(C)C)NC(=O)[C@H]([C@@H](C)CC)NC(=O)[C@H](CC(N)=O)NC1=O [M7]
  IC50: 330 nM
